# Laboratory results from patent publication US5616606A, “Oligopeptide antiretroviral agents” (priority 1995, dated 1997).
# Test system: T4 lymphocytes (CEM cell line)
# Assay: NCI anti-HIV screen, toxicity control in uninfected cells
# Type: cell-based
# Conditions: Table XI
substance,measurement,value
Bis-distamycin [Compound 16],IC50,> 100 µM
